Compound potency records, mixed from different reports. Data source: NIAID ChemDB in PubChem.

All rows: host cell toxicity; read-out: CC50

CCn is the concentration with n% toxicity to the cells. Conditions beyond the fields shown may differ between rows. Two numbers with a dash give a range or band. An empty or dashed field is not shown.

| SMILES | cell line | read by | result |
|---|---|---|---|
| Cc1cc(-c2n[nH]c(C)c2N=O)no1 | MIT-4 | - | 26 µM |
| Cc1cccnc1CN(CCCCN)Cc1nc2ncccc2[nH]1 | C8166 | MTT | >10 µM |
| CCCCOc1nc(N)nc2c1ncn2/C=C1/C[C@@H]1CO | Akata | ATP | >20 µM |
| CCCCn1nc(-c2cc(C)on2)c(N=O)c1C | MIT-4 | - | 92 µM |
| CN1CCN(c2ccnc3nc(CN(CCCCN)Cc4ncccc4C4CC4)[nH]c23)CC1 | C8166 | MTT | >10 µM |
| CN(C(=O)[C@H](Cc1ccccc1)NC(=O)CNC(=O)c1ccccc1)c1cccc(Cl)c1 | TZM-gfp | XTT | >50 µM |
| Cc1cc(C=O)cc(C)c1Oc1cc(Nc2ccc(C#N)cc2)nc2ccccc12 | HuCCA-1 | MTT | 29.4 µM |
| Cn1c2c(c(=O)n(C)c1=O)S[C@H]1[C@@H](O2)O[C@H](COc2ccccc2)[C@@H](OCc2ccccc2)[C@@H]1OCc1ccccc1 | PBM | - | >100 µM |
| CCn1nc(C)c(N=O)c1-c1cc(C)on1 | MIT-4 | - | 42 µM |
| NC(=S)Nc1cccc(OCCCCCOc2ccccc2-c2ccc(Cl)cc2)c1 | Ava5-EG(delta4AB)SEAP | MTS | >1 µM |
| C=C1CC2C[C@@H](OC(=O)c3ccccc3)[C@H]3[C@@](CO)(C(=O)O)CCC[C@]3(C)C23CCC1C3 | HELA229 | - | 0.78 µg/mL |
| COc1ccc2nc3n[nH]c(C)c3c(SCc3ccco3)c2c1 | FS-85 | - | >100 µg/mL |
| CC(=O)OC[C@H]1O[C@@H]2Oc3[nH]c(=O)[nH]c(=O)c3S[C@@H]2[C@@H](OC(C)=O)[C@H]1OC(C)=O | PBM | - | >100 µM |
| Cc1ccc(S(=O)(=O)N(CCC(C)C)[C@H](CO)CC(C)CCNC(=O)[C@@H](N)C(c2ccccc2)c2ccccc2)cc1 | T lymphoid cells | microscopy | >10 µM |
| CCn1c(-c2nccs2)cc(=O)c2cc(C(C)C)ccc21 | HELA-OHIO | MTT | 32 µg/mL |
| Cc1cc(NS(=O)(=O)c2ccc(NC(=S)NCc3ccccc3)cc2)no1 | CEM174 | MTT | >100 µM |
| CN(C(=O)[C@H](Cc1ccccc1)NC(=O)CNC(=O)c1ccccc1)c1ccc(F)cc1 | TZM-gfp | XTT | >50 µM |
| COC(=O)N[C@H](C(=O)NC1(CCC[C@@H](CO)N(CCC(C)C)S(=O)(=O)c2ccc(N)cc2)CCCC1)C(c1ccccc1)c1ccccc1 | T lymphoid cells | microscopy | >10 µM |
| COc1ccccc1NC(=S)Nc1ccc(S(=O)(=O)Nc2cc(C)on2)cc1 | CEM174 | MTT | >100 µM |
| Clc1ccc2ncnc(Nc3ccc(N4CCOCC4)cc3)c2c1 | HUH 9B | - | >25 µM |
| Cc1cc(NS(=O)(=O)c2ccc(NC(=S)Nc3ccc4ccccc4c3)cc2)no1 | CEM174 | MTT | >100 µM |
| CC(C)N(Cc1cccc(OCCCCCC(=O)OC(=O)O)c1)C(=O)c1ccc(-c2ccc3c(c2)OCCO3)cc1 | KEP293 | - | >20 µM |
| COc1cc(OCCCCCOc2cccc(NC(N)=S)c2)cc(OC)c1OC | Ava5-EG(delta4AB)SEAP | MTS | >1 µM |
| CC[C@@H](CCC[C@@H](CO)N(CCC(C)C)S(=O)(=O)c1ccc(CO)cc1)NC(=O)[C@@H](NC(=O)OC)C(c1ccccc1)c1ccccc1 | T lymphoid cells | microscopy | >10 µM |
| Cc1cc(-c2nn(CCO)c(C)c2N=O)no1 | MIT-4 | - | 3.35 µM |
| CC(C)C[C@@H]1NC(=O)[C@H](Cc2c[nH]c3ccccc23)NC(=O)[C@@H](CCCN)NC(=O)[C@H](CC(=O)NCc2ccccc2)NC(=O)[C@H](C(C)C)NC(=O)[C@@H](CC(C)C)NC1=O | Hep2G | luminescence | 50.1 µM |
| COC(=O)[C@H]1[C@@H]2C[C@@H](O[C@@H]3O[C@H](C)[C@@H](O)[C@H](N)[C@@H]3O)/C=C/C=C/C=C/C=C/C=C/C=C/C=C/[C@H](C)[C@@H](O)[C@H](C)[C@H](C)OC(=O)C[C@H](O)C[C@H](O)[C@@H](O)CC[C@H](O)C[C@H](O)C[C@](O)(C[C@@H]1O)O2 | MIT-4 | - | >200 µM |
| COC(=O)N[C@H](C(=O)N[C@@H](C)CCC[C@@H](CO)N(CCC(C)C)S(=O)(=O)c1ccc(N)cc1)C(c1ccccc1)c1ccccc1 | T lymphoid cells | microscopy | >10 µM |
| CC1=CC2C(=O)c3cc(O)cc(O)c3C(=O)C2C(O)=C1 | K562 erythroleukemia cells | - | 35 µM |
| COc1ccc(-c2c(C)c(=O)c3cc(C(C)C)ccc3n2C)cc1 | HeLa S3 | MTT | 7.6 µg/mL |
| C=CCOc1nc(N)nc2c1ncn2/C=C1/C[C@@H]1CO | Akata | ATP | >20 µM |
| CN1C[C@@H](O)[C@@H](O)[C@H](O)[C@H]1CO | T CELLS | - | >300 µg/mL |
| CC(C)N(Cc1cccc(OCCCCCC(=O)OC(=O)O)c1)C(=O)c1ccc(-c2cccc(Br)c2)cc1 | RAJI | - | >20 µM |
| CCCc1ccc2c(c1)c(=O)c(C)c(-c1ccccc1)n2CC | HeLa S3 | MTT | 6.5 µg/mL |
| OC[C@@H]1NC[C@@H](O)[C@H]1O | T CELLS | - | >130 µg/mL |
| CS(=O)(=O)C1(c2ccc(C(=O)NC34CC(c5csc(-c6ccccc6)n5)(C3)C4)o2)CC1 | Primary human hepatocytes | absorbance | 8.91 µM |
| Cc1cn(CC(=O)N[C@@H](Cc2ccccc2)C(=O)N(C)c2cccc(Br)c2)c(=O)[nH]c1=O | TZM-gfp | XTT | >50 µM |
| CN(Cc1nc2ccccc2[nH]1)Cc1ncccc1CCC(=O)O | C8166 | MTT | >10 µM |
| CCOC(=O)CCCCCOc1cccc(CN(C(=O)c2ccc(-c3cccc(OC(C)C)c3)cc2)C(C)C)c1 | BJ | - | >20 µM |
| CS(=O)(=O)C1(c2ccc(C(=O)NC34CC(c5cnn(-c6ccc(Cl)cc6)n5)(C3)C4)o2)CC1 | Primary human hepatocytes | absorbance | 149 µM |
| CC(=O)O[C@@H]1[C@@H](OC(C)=O)[C@H](C)O[C@@H]2Oc3c(c(=O)n(C)c(=O)n3C)S[C@@H]21 | PBM | - | 46.2 µM |
| COC(=O)N[C@H](C(=O)N[C@@H](C)CCC[C@@H](CO)N(C(C)C)S(=O)(=O)c1ccc(C(C)=O)cc1)C(c1ccccc1)c1ccccc1 | T lymphoid cells | microscopy | >10 µM |
| Cc1cc(NS(=O)(=O)c2ccc(NC(=S)Nc3ccc(Cl)c(Cl)c3)cc2)no1 | CEM174 | MTT | >100 µM |
| NC(=S)Nc1cccc(OCCCCCCCCOc2cccc3ccccc23)c1 | Ava5-EG(delta4AB)SEAP | MTS | >1 µM |
| Cc1cccc(NC(=S)Nc2ccc(S(=O)(=O)Nc3cc(C)on3)cc2)c1 | CEM174 | MTT | >100 µM |
| CC[C@@H](CCC[C@@H](CO)N(C(C)C)S(=O)(=O)c1ccc(C(C)=O)cc1)NC(=O)[C@@H](NC(=O)OC)C(c1ccccc1)c1ccccc1 | T lymphoid cells | microscopy | >10 µM |
| CC(C)c1ccc2c(c1)c(=O)cc(-c1ccco1)n2C | HeLa S3 | MTT | >20 µg/mL |
| Cn1c2c(c(=O)n(C)c1=O)S[C@@H]1[C@H](O2)O[C@H](COc2ccccc2)[C@@H](OCc2ccccc2)[C@@H]1OCc1ccccc1 | PBM | - | >100 µM |
| Cc1cc(NS(=O)(=O)c2ccc(NC(=S)NCCc3ccccc3)cc2)no1 | CEM174 | MTT | >100 µM |
| COc1ccc(C(O)C(Br)N=[N+]=[N-])cc1OC | BJ | - | <13.5 µM |
| CS(=O)(=O)C1(c2nsc(C(=O)NC34CC(c5ccn(-c6ccc(Cl)cc6)n5)(C3)C4)n2)CC1 | Primary human hepatocytes | absorbance | >111 µM |
| S=C(Nc1cccc(OCCCCCOc2ccc(-c3ccccc3)cc2)c1)N1CCCCC1 | Ava5-EG(delta4AB)SEAP | MTS | >1 µM |
| CC(CCC(=O)N[C@@H](Cc1ccc(O)cc1)C(=O)O)C1CCC2C3CCC4C[C@H](O)CCC4(C)C3C[C@H](O)C12C | VK2/E6E7 | XTT | 119.5 µg/mL |
| FC(F)(F)Oc1ccc2ncnc(Nc3ccc(N4CCOCC4)cc3)c2c1 | HUH 9B | - | >25 µM |
| CC(C)CSc1nc(N)nc2c1ncn2/C=C1/C[C@@H]1CO | Akata | ATP | >20 µM |
| N#Cc1ccccc1OCCCCCOc1cccc(NC(N)=S)c1 | Ava5-EG(delta4AB)SEAP | MTS | >1 µM |
| CCCOc1nc(N)nc2c1ncn2/C=C1/C[C@@H]1CO | Akata | ATP | >20 µM |
| COC(=O)CCCCCN1C[C@@H](O)[C@H](O)[C@H](O)[C@@H]1C | T CELLS | - | >250 µg/mL |
| CCOC(=O)COc1ccc(C(O)O)cc1 | HEK 293 | - | >20 µM |
| c1cc(-c2ccc3ncnc(Nc4ccc(N5CCOCC5)cc4)c3c2)cc(-n2cccn2)c1 | HUH 9B | - | 10–25 µM |
| Nc1ccn(C[C@@H](CO)OCP(=O)(O)O)c(=O)n1 | HELF | - | 72 µM |
| Cc1nc(N(C)C(=O)Cc2ccc(-c3ccccn3)cc2)sc1S(N)(=O)=O | HEF | MTT | >30 µM |
| CCn1nc(-c2cc(C)on2)cc1C | MIT-4 | - | >200 µM |
| NC(=S)Nc1cccc(OCCCCCOc2ccccc2-c2ccc(C(F)(F)F)cc2)c1 | Ava5-EG(delta4AB)SEAP | MTS | >1 µM |
| CCOC(=O)[C@@]1(C)CC[C@]2(C)CC[C@]3(C)C(=CC(=O)[C@@H]4[C@@]5(C)CC/C(=N\OCc6ccc(Cl)c(Cl)c6)C(C)(C)[C@@H]5CC[C@]43C)[C@@H]2C1 | K562 | MTT | 30.83 µM |
| CCn1c(-c2cccc(F)c2)c(C)c(=O)c2cc(C(C)C)ccc21 | HeLa S3 | MTT | >4 µg/mL |
| CCOC(=O)[C@@]1(C)CC[C@]2(C)CC[C@]3(C)C(=CC(=O)[C@@H]4[C@@]5(C)CC/C(=N\OCc6ccccc6)C(C)(C)[C@@H]5CC[C@]43C)[C@@H]2C1 | CT26 | MTT | 76.65 µM |
| CCOc1ccc(-c2cc(=O)c3cc(C(C)C)ccc3n2C)cc1C | HELA-OHIO | MTT | 5.7 µg/mL |
| Nc1nc(=O)c2ncn([C@@H]3O[C@H](CO)[C@@H](O)[C@H]3O)c2c(=O)[nH]1 | BFU-E | - | 58 µM |
| CC(C)CCN(c1ccc(N2CCOCC2)cc1)c1ncnc2ccc(-c3cccs3)cc12 | HUH 9B | - | 10–25 µM |
| Cc1ccc(N(C)C(=O)[C@H](Cc2ccccc2)NC(=O)CC2NC(=O)NC2=O)cc1 | TZM-gfp | XTT | >50 µM |
| CN(Cc1ncccc1CCC#N)Cc1nc2ccccc2n1C(=O)OC(C)(C)C | C8166 | MTT | >10 µM |
| Cc1cc(-c2c(N=O)c(C)nn2-c2ccccc2)no1 | MIT-4 | - | 14 µM |
| CCn1c(-c2ccco2)cc(=O)c2cc(C(C)C)ccc21 | HeLa S3 | MTT | >20 µg/mL |
| CN(C)Cc1ccc(-c2ccc3ncnc(Nc4ccc(N5CCOCC5)cc4)c3c2)o1 | HUH 9B | - | 10–25 µM |
| C=C1CC2C[C@@H](OC(=O)c3ccccc3)[C@H]3[C@](C)(C(=O)O)CCC[C@]3(C)C23CCC1C3 | HELA229 | - | 0.2 µg/mL |
| CS(=O)(=O)C1(c2ccc(C(=O)NC34CC(c5nc(-c6ccc(Cl)cc6)no5)(C3)C4)o2)CC1 | Primary human hepatocytes | absorbance | 112 µM |
| CCCOc1ccc2c(c1)c(=O)c(C)c(-c1ccccc1)n2CC | HeLa S3 | MTT | >10 µg/mL |
| CCOC(=O)[C@@]1(C)CC[C@]2(C)CC[C@]3(C)C(=CC(=O)[C@@H]4[C@@]5(C)CC/C(=N\OCc6ccc(F)cc6)C(C)(C)[C@@H]5CC[C@]43C)[C@@H]2C1 | K562 | MTT | 13.26 µM |
| CS(=O)(=O)C1(c2ccc(C(=O)NC34CC(c5noc(-c6ccc(Cl)cc6)n5)(C3)C4)o2)CC1 | Primary human hepatocytes | absorbance | 46 µM |
| c1csc(-c2ccc3ncnc(Nc4ccc(N5CCOCC5)cc4)c3c2)c1 | HUH 9B | - | >25 µM |
| COC(=O)CCCC1=NCCc2cc(OC)c(OC)cc21 | BJ | - | <7.5 µM |
| CCOC(=O)[C@@]1(C)CC[C@]2(C)CC[C@]3(C)C(=CC(=O)[C@@H]4[C@@]5(C)CC/C(=N\OCC6CCOCC6)C(C)(C)[C@@H]5CC[C@]43C)[C@@H]2C1 | CT26 | MTT | 37.39 µM |
| COC(=O)N[C@H](C(=O)N[C@H](CCC[C@@H](CO)N(CCC(C)C)S(=O)(=O)c1ccc([C@@H](C)O)cc1)C1CC1)C(c1ccc(F)cc1)c1ccc(F)cc1 | T lymphoid cells | microscopy | >10 µM |
| CCCn1nc(-c2cc(C)on2)c(N=O)c1C | MIT-4 | - | 14 µM |
| CN1CCN(c2ccnc3nc(CN(CCCCN)Cc4ncccc4/C=C/C#N)[nH]c23)CC1 | C8166 | MTT | >10 µM |
| CS(=O)(=O)C1(c2ccn(C(=O)NCCC3(c4ncc(-c5ccc(Cl)cc5)s4)CCC3)n2)CC1 | Primary human hepatocytes | absorbance | 10.83 µM |
| Cc1cccnc1CN(C)Cc1nc2ccccc2n1C(=O)OC(C)(C)C | C8166 | MTT | >10 µM |
| CC1=CC2C(=O)c3cc(OC/C(C)=N/O)cc(O)c3C(=O)C2C(O)=C1 | K562 erythroleukemia cells | - | 33 µM |

Repeating the final 5 entries:

SMILES,cell line,read by,result
CCCn1nc(-c2cc(C)on2)c(N=O)c1C,MIT-4,-,14 µM
CN1CCN(c2ccnc3nc(CN(CCCCN)Cc4ncccc4/C=C/C#N)[nH]c23)CC1,C8166,MTT,>10 µM
CS(=O)(=O)C1(c2ccn(C(=O)NCCC3(c4ncc(-c5ccc(Cl)cc5)s4)CCC3)n2)CC1,Primary human hepatocytes,absorbance,10.83 µM
Cc1cccnc1CN(C)Cc1nc2ccccc2n1C(=O)OC(C)(C)C,C8166,MTT,>10 µM
CC1=CC2C(=O)c3cc(OC/C(C)=N/O)cc(O)c3C(=O)C2C(O)=C1,K562 erythroleukemia cells,-,33 µM